A mixed list of measured activities; the numbers were collected in NIAID ChemDB.

Common to all: cytotoxicity tests; cell line: MDCK; measure: CC50

a–b is a range or a potency band.

CCCC(CCC)C(NC(C)=O)C1C(N=C(N)N)CC(C(=O)O)C1O ; method: neutral red ; result: >1000 µM
Nc1nc(Cl)cc(NCC2(CO)CC(CCc3ccccc3)C2)n1 ; result: 0.81–0.92 µM
CC(=O)N[C@H]1[C@H]([C@H](O)[C@H](O)CO)OC(C(=O)O)=C[C@@H]1N=C(N)N ; method: neutral red ; result: >1000 µM
CCCOc1ncn(-c2ccc(NC(=S)NC34CC5CC(CC(C5)C3)C4)cc2)n1 ; result: 100 µg/mL
N#Cc1cnc(N)nc1NCC1(CO)CC(CCc2ccccc2)C1 ; result: 1.7–3 µM
Cc1ccc(O)c(C(=S)NC[C@@]2(C)C[C@@H](O)CC(C)(C)C2)c1 ; result: 15 µg/mL
CCCOc1ncn(-c2ccc(NC(=S)Nc3ncccn3)cc2)n1 ; result: 100 µg/mL
CC(O)C1(CNc2cc(Cl)nc(N)n2)CCC1 ; result: 110 µM
N#Cc1cc(C#N)c2[nH]c3ccccc3n2c1=O ; result: 50 µg/mL
[N-]=C=Nc1nncs1 ; result: 0.3–1 µg/mL
C[C@@H]1CCC[C@H](C)N1CCNC(=O)c1cc(Cl)ccc1O ; result: 30 µg/mL
CC#Cc1cn([C@@H]2O[C@H](COP(=O)(OCC)Oc3ccccc3)[C@@H](O)[C@@H]2O)c(=O)[nH]c1=O ; result: >500 µM
Cc1ccc(C)c(C(=S)NC[C@@]2(C)C[C@H](O)CC(C)(C)C2)c1 ; result: 45 µg/mL
CC(=O)c1cc(NC(=O)c2ccccc2)c(=O)n2c1[nH]c1ccccc12 ; result: 40 µg/mL
Cc1ccc(O)c(C(=O)NCCN2CCC(C)[C@@H]3CCCC[C@@H]32)c1 ; result: 100 µg/mL
CCCOc1nc2c(nc(N)n2[C@@H]2O[C@H](CO)[C@@H](O)[C@H]2F)c(=O)[nH]1 ; method: MTT ; result: >500 µM
O=C(/C=C/c1ccc(O)c(O)c1)O[C@@H]1CC(O)(C(=O)O)C[C@@H](OC(=O)/C=C/c2ccc(O)c(O)c2)C1O ; result: >400 µM
Cc1cc(NCCCCCCCCNc2cc(C)nc3cc(N(C)C)ccc23)c2ccc(N(C)C)cc2n1 ; method: MTT ; result: >500 µg/mL
CCOc1ncn(-c2ccc(NC(=S)Nc3cccc(O)c3)cc2)n1 ; result: >200 µg/mL
Cc1ccc(O)c(C(=O)N[C@@H]2CCC34CCC3N(C)C4C2)c1 ; result: 100 µg/mL
CC(=O)N[C@H]1[C@H]([C@H](OC(=O)NCCCCCCNC(=O)CN(CCN(CC(=O)O)CC(=O)NCCCCCCNC(=O)O[C@@H]([C@@H]2OC(C(=O)O)=C[C@H](N=C(N)N)[C@H]2NC(C)=O)[C@H](O)CO)CC(=O)O)[C@H](O)CO)OC(C(=O)O)=C[C@@H]1N=C(N)N ; result: >0.1 µg/mL
Nc1cc(Cl)nc(N)n1 ; result: >690 µM
CC1(C)C[C@@H](O)C[C@](C)(CNC(=S)c2cccc([N+](=O)[O-])c2)C1 ; result: 15 µg/mL
C/C1=C\C=C\C2(C)C=C(CO)C(C)CC23OC([O-])C(C3=O)C(O)/C=C/C2(C)C=C(CO)C(C)CC23OC([O-])C(C3=O)C(O)/C(C)=C/C=C/C2C=C(CO)C(C)CC23OC([O-])C(C3=O)C(O)/C=C/C2(C)C=C(CO)C(C)CC23OC([O-])C(C3=O)C1O ; result: >100 µg/mL
C/C(=C\CCC1(C)C=Cc2cc(O)cc(C)c2O1)CC/C=C(\C)CC[C@@H](C)C(C)(C)O ; result: 24 µM
CN(C)C(=O)COC(=O)Cc1ccc(OC(=O)c2ccc(N=C(N)N)cc2)cc1.COS(=O)(=O)O ; method: MTT ; result: >500 µg/mL
CC1(C)CC[C@]2(C(=O)OC3O[C@H](CO)[C@@H](O)[C@H](O)[C@H]3O)CC[C@]3(C)C(=CCC4[C@@]5(C)CCC(O[C@@H]6O[C@H](C(=O)O)[C@@H](O)[C@H](O)[C@H]6O)C(C)(C)C5CC[C@]43C)[C@H]2C1 ; result: 580 µM
CC#Cc1cn([C@@H]2O[C@H](COP(=O)(Oc3ccccc3)Oc3ccc([N+](=O)[O-])cc3)[C@@H](O)[C@@H]2O)c(=O)[nH]c1=O ; result: 110 µM
Nc1nc2c(=O)[nH]cnc2n1[C@@H]1O[C@H](CO)[C@@H](O)[C@H]1F ; method: MTT ; result: >500 µM
CC#Cc1cn([C@@H]2O[C@H](COP(=O)(O)Oc3ccc(F)cc3)[C@@H](O)[C@@H]2O)c(=O)[nH]c1=O ; result: >500 µM
Nc1nccc(NCC2(CO)CC(CCc3ccccc3)C2)n1 ; result: 11–18 µM
CCCOc1ncn(-c2ccc(NC(=S)NC3O[C@H](CO)[C@@H](O)[C@H](O)[C@H]3O)cc2)n1 ; result: >200 µg/mL
CCC(CC)[C@H](NC(C)=O)[C@@H]1[C@H](O)[C@@H](C(=O)O)C[C@H]1N=C(N)N ; method: neutral red ; result: >1000 µM
C/C1=C\C=C\C2(C)C=C(CO[C@H]3O[C@H](CO)[C@H](O)[C@H](O)[C@H]3O)C(C)CC23OC([O-])C(C3=O)C(O)/C=C/C2(C)C=C(CO)C(C)CC23OC([O-])C(C3=O)C(O)/C(C)=C/C=C/C2C=C(CO[C@H]3O[C@H](CO)[C@H](O)[C@H](O)[C@H]3O)C(C)CC23OC([O-])C(C3=O)C(O)/C=C/C2(C)C=C(C=O)C(C)CC23OC([O-])C(C3=O)C1O ; result: >100 µg/mL
CCC(C)N1C2CCC23CC[C@@H](NC(=O)c2cc(C)ccc2O)CC13 ; result: 100 µg/mL
Nc1nc(Cl)cc(NCC2(CO)CC(OCc3ccccc3)C2)n1 ; result: 1.7–4.3 µM
Cc1cc(C)cc(C(=S)NC[C@@]2(C)C[C@H](O)CC(C)(C)C2)c1 ; result: 18 µg/mL
Nc1ncnc2c1ncn2[C@@H]1C[C@@H](O)[C@@H](O)[C@H]1O ; result: >200 µg/mL
C/C1=C\C=C\C2(C)C=C(CO)C(C)CC23OC([O-])C(C3=O)C(O)/C=C/C2(C)C=C(CO)C(C)CC23OC([O-])C(C3=O)C(O)/C(C)=C/C=C/C2C=C(CO)C(C)CC23OC([O-])C(C3=O)C(O)/C=C/C2(C)C=C(C=O)C(C)CC23OC([O-])C(C3=O)C1O ; result: 68 µg/mL
COc1c(Cl)nc(N)nc1NCC1(CO)CC(CCc2ccccc2)C1 ; result: 0.13–0.27 µM
Oc1ccc([C@H]2Oc3ccc(/C=C/c4cc(O)cc(O)c4)cc3[C@@H]2c2cc(O)cc(O)c2)cc1 ; method: MTT ; result: 38.42 µg/mL
Nc1nc2c(=O)[nH]c(Cl)nc2n1[C@@H]1O[C@H](CO)[C@@H](O)[C@H]1F ; method: MTT ; result: >500 µM
N#Cc1cc(NC(=O)c2ccccc2)c(=O)n2c1[nH]c1ccccc12 ; result: 10 µg/mL
COc1ccccc1CNC(=O)C1=Cc2ccncc2CC1 ; result: >316 µM
CCC(CC)[C@H](NC(C)=O)[C@@H]1[C@H](O)[C@@H](C(=O)O)C[C@H]1N=C(N)N ; method: neutral red ; result: >1000 µM
CC1(C)C[C@H](O)C[C@](C)(CNC(=S)c2ccccc2O)C1 ; result: 40 µg/mL
CCOc1ncn(-c2ccc(NC(=S)Nc3ncccn3)cc2)n1 ; result: 8 µg/mL
CC(C)CS[C@@H]1C=C[C@H](n2cnc3c(N)ncnc32)C1 ; result: 50 µg/mL
Cc1ccc(C2NC(=O)C3NC(=O)C(c4cc(O)cc(O)c4)NC(=O)C(NC(=O)C(N)Cc4ccc(O)cc4)Cc4c[nH]c5cc(ccc45)-c4cc3cc(c4O)Oc3ccc(cc3)CC(C(=O)NC(C(=O)O)c3ccc(O)c(O)c3)NC2=O)cc1Cl ; result: >200 µg/mL
N#Cc1cc(CC(=O)c2ccccc2)c(=O)n2c1oc1ccccc12 ; result: 40 µg/mL
CC(=O)N[C@H]1[C@H]([C@H](O)[C@H](O)CO)OC(C(=O)O)=C[C@@H]1N=C(N)N ; result: >1000 µM
COc1cc(/C=C/c2ccc3c(c2)[C@H](c2cc(OC)cc(OC)c2)[C@@H](c2ccc(O)cc2)O3)cc(OC)c1 ; method: MTT ; result: 118.1 µg/mL
CC(=O)c1cc(CC(=O)c2ccccc2)c(=O)n2c1sc1ccccc12 ; result: 40 µg/mL
Cc1ccc(C(=S)NC[C@@]2(C)C[C@@H](O)CC(C)(C)C2)cc1 ; result: 25 µg/mL
CC#Cc1cn([C@@H]2O[C@H](COP(=O)(N[C@H](C(=O)OC)C(C)C)Oc3ccccc3)[C@@H](O)[C@@H]2O)c(=O)[nH]c1=O ; result: >500 µM
C1=CCC2(CC1)COC(c1ccco1)OC2 ; method: MTT ; result: >500 µg/mL

A second listing of 4 rows from above:

Cc1ccc(C2NC(=O)C3NC(=O)C(c4cc(O)cc(O)c4)NC(=O)C(NC(=O)C(N)Cc4ccc(O)cc4)Cc4c[nH]c5cc(ccc45)-c4cc3cc(c4O)Oc3ccc(cc3)CC(C(=O)NC(C(=O)O)c3ccc(O)c(O)c3)NC2=O)cc1Cl ; result: >200 µg/mL
[N-]=C=Nc1nncs1 ; result: 0.3–1 µg/mL
C1=CCC2(CC1)COC(c1ccco1)OC2 ; method: MTT ; result: >500 µg/mL
CC#Cc1cn([C@@H]2O[C@H](COP(=O)(Oc3ccccc3)Oc3ccc([N+](=O)[O-])cc3)[C@@H](O)[C@@H]2O)c(=O)[nH]c1=O ; result: 110 µM

Rows are shuffled and stem from different studies. CCn: concentration that lowers growth or viability of the cells by n%.